## Percent effect of library compounds

Each number is a percent effect as filed. The controls that fix the scale are not given in the record; negative values are as filed. This is part of a subset picked to be rich in strong results.

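Phenotypic screen: M. tuberculosis growth, glucose 7H9 medium, 3 days; the read-out is not stated. Tested at 500 µM. The record gives no direction; compounds that gave an IC50 in retests scored well above the rest, so higher reads as more growth inhibition. Size under these conditions: about 18,000 compounds, about 1,400 of them at 50% or above in at least one test.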

Compound,effect
CN(C)S(=O)(=O)NC1CCCOc2c(Cl)cccc21 (stereo not given),55.58%
C[C@@H]1NCC[C@@H]1NC(=O)OC(C)(C)C,-0.212%
CN(Cc1cccnc1)CC1(CO)CC1,3.425%
CCCNC(=O)c1ccccc1NS(=O)(=O)CC,4.52%
Cc1cc(CN(C)C(=O)c2c(C)nn(C)c2Cl)no1,-5.559%
OCC1CN(Cc2ccc(Br)c3cccnc23)CCO1 (stereo not given),46.75%
CNC(=O)CNC(=O)c1ccc(C#N)c(C)n1,-11.03%
NCc1noc(-c2cccc(Br)c2)n1,62.02%
COc1cccc(CNCCn2cccn2)c1OC,66.05%
Cc1cc(C)cc(C(=O)N2CCN(CCC#N)CC2)c1,11.58%
Cc1cc(C)nc(N2CCC2)n1,4.606%
CCOC(=O)c1ccc(N2CCC(CCO)CC2)nc1,82.47%
CN1CCC(C2CCN(Cc3cccnc3)C2)CC1 (stereo not given),-2.832%
CNC(=O)CC(C)N(C)C(=O)c1ccc2c(c1)CCC2 (stereo not given),21.92%
COc1ccc(CNC(=O)NCC2CC2)cn1,39.82%
COc1ccc(CC(=O)N2CCNCC2)cc1,7.064%
Nc1nc2ccc(C(=O)N3CCNCC3)cc2o1,8.672%
CCOc1ccc(C(=O)N2CCCC(C(N)=O)C2)cn1 (stereo not given),24.88%
CC(N)c1cccc(OCc2ccccn2)c1 (stereo not given),39.59%
CC(C)c1ncc(C(=O)N2C[C@@H]3CCCN[C@@H]3C2)cn1,12.72%
CN(C)[C@H]1CCN(C(=O)CCc2ccncc2)C1,-18.69%
CN(C)c1cc(CNC(=O)c2ccncc2)ccn1,22.68%
CCCC(=O)Nc1ccc(N2CCN(CC)CC2)cc1,21.66%
CN(C)S(=O)(=O)c1cc2c(cc1Cl)OCCO2,58.97%
CCOc1ccc(Cl)cc1CCNS(=O)(=O)N(C)C,90.41%
CCc1ccc(C(=O)CSc2nnc(N)[nH]2)cc1,40.45%
O=C1CNC(=O)C2(CC2)N1,1.486%
CCNc1ccc(C(F)(F)F)cn1,11.87%
Cc1cccc(C)c1-n1nnnc1SCC(N)=O,39.91%
CCOC(=O)C(C)n1cnc2c1c(=O)n(C)c(=O)n2C (stereo not given),2.287%
O=C(NC1CNC1)C1CC1,3.638%
CN(C)c1ccc(CN2CCN(C)C(CO)C2)cn1 (stereo not given),8.609%
CNS(=O)(=O)c1ccc(NC2CCC2)cc1OC,3.478%
CS(=O)(=O)NCCC1CCCCN1CC1CCNCC1 (stereo not given),1.652%
CNC(=O)CN(C)c1nccc(C2CCCC2)n1,30.52%
Fc1cccc(-c2noc(C3CCCN3)n2)c1 (stereo not given),64.2%
CCNC(=O)CN1CCC(Cn2ccnc2C)CC1,3.216%
CCNC(=O)C1CCN(C(=O)CSc2nnc(N)s2)C1 (stereo not given),8.776%
Cn1ccnc1C1CCCN1C(=O)c1ccccc1F (stereo not given),2.557%
Cn1cc(CCC(=O)N2C[C@H](C3CC3)[C@@H](N)C2)cn1,-8.918%
CCS(=O)(=O)N(C)CC(=O)Nc1cc(C)on1,11.96%
O=C(NCCO)c1ccc(OCc2cccs2)cc1,69.59%
CS(=O)(=O)N1CCCN(Cc2nccn2C2CC2)CC1,4.489%
CCOc1cccc(CSc2nc(=O)ccn2CC)n1,50.62%
COCCC(C)(C)CN,0.3865%
CC(=O)N1CCN(c2ccc(CO)cc2)CC1,-8.077%
C[C@@H]1COC[C@H](c2ccccc2)N1,-3.23%
C=C(Br)Cn1c(CO)nc2ccccc21,35.34%
NCc1ccc(OCC2CC2)nc1,41.96%
CC(O)CN1CCN(C(=O)CN(C)S(C)(=O)=O)CC1 (stereo not given),2.363%
O=C(NCCN1CCNCC1)C1CCC1,-5.502%
O=C(c1cncc(-c2cn[nH]c2)n1)N1CCCCC1,12.02%
CNS(=O)(=O)c1ccc(CNc2cccc(C)n2)cc1,-4.956%
Cn1ccc(C(=O)Nc2ccc(Br)cn2)n1,6.94%
CCCNC(=O)CNC(=O)Cc1c[nH]c2ccccc12,17.22%
COc1ccc(C2CCN(CC(=O)NC(N)=O)C2)cc1 (stereo not given),65.05%
CS(=O)(=O)NC(c1ccc(F)cc1)c1cccnc1 (stereo not given),50.7%
CN(CCCOc1ccccc1)CC(=O)NCCC#N,8.784%
COc1ccc2ccccc2c1CN,-1.765%
Cc1cc(C)n(CC(=O)N2CCOCC2C)n1 (stereo not given),-0.3622%
COc1ccc(S(=O)(=O)Nc2cccc(CN)c2)cc1,75.24%
Cc1ccc(C(=O)NCc2ccnc(N(C)C)c2)s1,56.49%
Cn1ccc2ccc(NS(=O)(=O)C3CC3)cc2c1=O,-9.035%
CC(C)C(C)(C#N)NC(=O)CNc1cccc(F)c1 (stereo not given),72.49%
CCN(CC)CC(=O)Nc1sccc1C(N)=O,-6.523%
NCc1cccc(-c2cccnc2)c1,37%
CCN(C)C(=O)Nc1ccc(C(=O)OC)c(F)c1,50.7%
CCCc1ccc(S(=O)(=O)N2CCNCC2)cc1,56.44%
COc1ccc(CCCC(=O)N2CCC(CN)C2)cc1 (stereo not given),73.47%
CN1Cc2cc(-c3csc(N)n3)ccc2NC1=O,59.24%
Cc1ccnc(NC(=O)[C@@H]2CCCO2)n1,2.577%
O=S(=O)(Cc1ccc(Cl)cc1Cl)CC(O)CO (stereo not given),27.8%
Cc1ocnc1C(=O)Nc1ccc2c(c1)NCCC2,22.97%
Cc1c(C(=O)NCCc2ccsc2)cnn1C,18.56%
CCC(C)NC(=O)c1nc2ccccc2n(C)c1=O (stereo not given),-5.948%
Cc1ccccc1C(C)NC(=O)CN1CSCC1=O (stereo not given),6.122%
COc1cc(CNc2ccc(CO)cn2)cc(OC)c1,38.87%
CN1CCC(NC(=O)c2ccc(C#N)cc2)CC1,-18.27%
CCN(CC)C(=O)c1cc(C)oc1C,-6.846%
CC1(C)CN(C(=O)c2cc(C3CC3)on2)CCO1,34.83%
CC(CN)c1ccc(F)cc1 (stereo not given),3.751%
OC(Cn1nnc(-c2ccsc2)n1)CC(F)(F)F (stereo not given),81.89%
NS(=O)(=O)c1ccc(F)c(C(=O)Nc2ccccc2)c1,54.33%
Cc1cnn(CCNCc2nccn2C)c1,64.85%
Cc1c[nH]c(CNC(=O)CCOc2ccccc2)n1,32.1%
CC(NC(=O)CCCn1cccc1)c1cnn(C)c1 (stereo not given),-0.6145%
NC(=O)c1ccc(CNS(=O)(=O)N2CCOCC2)cc1,0.3233%
CCOC(=O)C1CCCN(c2nccnc2C#N)C1 (stereo not given),42.93%
NCc1ccncc1OCC(F)(F)F,25.55%

Repeated from the top, 9 entries:

- CN(C)S(=O)(=O)NC1CCCOc2c(Cl)cccc21 (stereo not given) : 55.58%
- C[C@@H]1NCC[C@@H]1NC(=O)OC(C)(C)C : -0.212%
- CN(Cc1cccnc1)CC1(CO)CC1 : 3.425%
- CCCNC(=O)c1ccccc1NS(=O)(=O)CC : 4.52%
- Cc1cc(CN(C)C(=O)c2c(C)nn(C)c2Cl)no1 : -5.559%
- OCC1CN(Cc2ccc(Br)c3cccnc23)CCO1 (stereo not given) : 46.75%
- CNC(=O)CNC(=O)c1ccc(C#N)c(C)n1 : -11.03%
- NCc1noc(-c2cccc(Br)c2)n1 : 62.02%
- COc1cccc(CNCCn2cccn2)c1OC : 66.05%

Measurements from “University of Dundee, Small-Polar-MMV Screening Library” (2021), ChEMBL document CHEMBL3988442.